PubChem BioAssay AID624099 – ICCB-Longwood | 2012
Screen: 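Human genes that papillomavirus E2 requires to repress the HPV18 LCR promoter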 (primary screen). Cell system: human C33A cervical carcinoma cells (HPV-negative) stably expressing BPV1 E2 and an HPV18 LCR luciferase reporter. Knock-down reagent: siRNA pool against human genes, 40 nM. Time to read-out: 72 h. Read-out: 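HPV18 LCR reporter light per well, converted to plate-wise z-scores that exclude control wells, and averaged over triplicate plates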. Scale: mean z-score and z-score: higher = stronger reporter signal, weaker E2 silencing. Active means: 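Mean z ≥ 2 together with z ≥ 2 in two or more of the three replicates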.
In all, the deposit lists about 21,000 reagents; shown is a random part of them. Of all reagents, 497 (2.4%) are marked active. 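Higher z means weaker E2 silencing; only reporter increases were scored, and knock-downs that hurt cell survival may mask genuine repressor factors.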 A number with no mark means an inactive call.

Against PRR23B, the values are mean z-score 0.22; z-score, replicate A = 0.25; z-score, replicate B = 0.27; z-score, replicate C = 0.16.
LINC02011 gave mean z-score 1.03; z-score, replicate A = 1.55; z-score, replicate B = 0.59; z-score, replicate C = 0.95.
Knock-down of SLC2A2 resulted in: mean z-score 0.95; z-score, replicate A = 0.86; z-score, replicate B = 0.88; z-score, replicate C = 1.11.
NACA showed mean z-score -1.12; z-score, replicate A = -1.19; z-score, replicate B = -1.05; z-score, replicate C = -1.14.
Knock-down of RHAG resulted in: mean z-score -0.75; z-score, replicate A = -0.78; z-score, replicate B = -0.87; z-score, replicate C = -0.61.
After knock-down of CALCOCO1 the results were mean z-score 0.91; z-score, replicate A = 1.14; z-score, replicate B = 1.19; z-score, replicate C = 0.39.
NCAN showed mean z-score 0.16; z-score, replicate A = -0.11; z-score, replicate B = 0.24; z-score, replicate C = 0.34.
For TNFRSF18, the values are mean z-score -0.93; z-score, replicate A = -0.67; z-score, replicate B = -1.17; z-score, replicate C = -0.94.
NFE2L2 showed mean z-score -0.07; z-score, replicate A = -0.1; z-score, replicate B = -0.01; z-score, replicate C = -0.08.
For INA, the values are mean z-score 0.17; z-score, replicate A = 0.19; z-score, replicate B = 0.18; z-score, replicate C = 0.15.
DHDDS showed mean z-score -1.21; z-score, replicate A = -1.33; z-score, replicate B = -1.18; z-score, replicate C = -1.14.
For ZNF322, the values are mean z-score -0.25; z-score, replicate A = -0.47; z-score, replicate B = -0.33; z-score, replicate C = 0.06.
With knock-down of SUOX the results were mean z-score 0.31; z-score, replicate A = 0.19; z-score, replicate B = 0.51; z-score, replicate C = 0.22.
Against GDAP1L1 the deposit lists mean z-score -0.56; z-score, replicate A = -0.48; z-score, replicate B = -0.58; z-score, replicate C = -0.63.

Limited to “z-score, replicate A”, for 2 of the entries above:
CALCOCO1: 1.14
NCAN: -0.11
